Measured values from several laboratories, pooled; numbers as filed in NIAID ChemDB.

All rows: target-level tests; species: HIV-1; protein: Protease; method: fluorescence; endpoint: IC50

Two numbers with a dash give a range or band.

{"structure": "Oc1ccc2c(O)c3ccccc3cc2c1O", "result": "62 µM"}
{"structure": "O=C(N[C@@H](Cc1ccccc1)[C@H](Cc1ccccc1)n1cc(CN2CCN(c3ccc(F)cc3F)CC2)nn1)OC1CCCC1", "result": "<5 µM"}
{"structure": "CC[C@H](C)[C@@H]1NC(=O)[C@@H](NC[C@@H](O)[C@H](Cc2ccccc2)NC(=O)[C@@H](NC(=O)[C@H](CC(C)C)NC(C)=O)C(C)C)Cc2ccc(cc2)OCCCNC1=O", "result": "0.002 µM"}
{"structure": "CCCCCCCCCCCCCCCC(=O)N[C@@H](Cc1ccc(O)cc1)C(=O)N[C@@H](CCC(=O)O)C(=O)N[C@@H](Cc1ccc2ccccc2c1)C(=O)O", "result": "0.5 µM"}
{"structure": "CCOC(=O)N[C@@H](Cc1ccccc1)[C@H](Cc1ccccc1)n1cc(CN2CCN(c3cc(Cl)ccc3C)CC2)nn1", "result": ">5 µM"}
{"structure": "CC(C)[C@H](NC(=O)OCc1ccccc1)C(=O)N[C@@H](Cc1ccccc1)[C@H](O)[C@H](Cc1ccccc1)NC(=O)[C@@H](NC(=O)c1cccnc1)C(C)C", "result": "<0.0025 µM"}
{"structure": "CCCCCCCCCCCCCCCC(=O)N[C@H](C(=O)N[C@@H](CCC(=O)O)C(=O)N[C@@H](CC(C)C)C(=O)O)c1ccc(OC(=O)c2ccccc2)cc1", "result": "~0.1 µM"}
{"structure": "O[C@@H]1[C@@H](O)[C@@H](OCc2ccccc2)[C@@H](Cc2ccccc2)S[C@H](Cc2ccccc2)[C@@H]1OCc1ccccc1", "result": "2–10 µM"}
{"structure": "CC(C)[C@H](NC(=O)c1ccncc1)C(=O)N[C@@H](Cc1ccccc1)C(O)[C@H](Cc1ccccc1)NC(=O)[C@@H](NC(=O)c1ccncc1)C(C)C", "result": "<0.1 µM"}
{"structure": "CC[C@H](C)[C@H](NC(=O)[C@@H]1CCCN1C[C@@H](O)[C@H](Cc1ccccc1)NC(=O)[C@H](CC(N)=O)NC(=O)[C@H](CC(C)C)NC(C)=O)C(=O)N[C@H](C(N)=O)C(C)C", "result": "0.06 µM"}
{"structure": "O=S1C[C@H](OCc2ccccc2)[C@H](O)[C@@H](O)[C@@H](OCc2ccccc2)[C@H]1Cc1ccccc1", "result": "2–10 µM"}
{"structure": "CC[C@H](C)[C@H](NC(=O)[C@@H]1CCCN1CC(O)[C@@H]1Cc2ccc(cc2)OCC(=O)N[C@@H](CCC(N)=O)C(=O)N[C@@H](C(N)=O)C(=O)N1)C(=O)N[C@H](C(N)=O)C(C)C", "result": "0.04 µM"}
{"structure": "CC(C)C(C(=O)N[C@@H](Cc1ccccc1)[C@@H](O)[C@H](O)[C@H](Cc1ccccc1)NC(=O)C(C(C)C)N(C)C)N(C)C", "result": "<0.005 µM"}
{"structure": "O=S1(=O)[C@H](Cc2ccccc2)[C@H](OCc2ccccc2)[C@H](O)[C@@H](O)[C@H](OCc2ccccc2)[C@H]1Cc1ccccc1", "result": "<2 µM"}
{"structure": "O=C1c2ccccc2C(=O)c2ccccc21", "result": "106 µM"}
{"structure": "CC[C@H](C)[C@H](NC(=O)[C@@H]1CCCN1C[C@@H](O)[C@H](Cc1ccccc1)NC(=O)[C@H](CC(N)=O)NC(=O)[C@H](CC(C)C)NC(=O)[C@H](CO)NC(C)=O)C(=O)N[C@H](C(=O)OC)C(C)C", "result": "0.022 µM"}
{"structure": "CC(=O)N[C@@H](Cc1ccc(O)cc1)C(=O)N[C@@H](CCC(=O)O)C(=O)N[C@@H](Cc1c[nH]c2ccccc12)C(=O)O", "result": "21 µM"}
{"structure": "O=C1c2c(O)cccc2Cc2cccc(O)c21", "result": "42 µM"}
{"structure": "O=S1(=O)[C@H](Cc2ccccc2)[C@H](OCc2cncs2)[C@H](O)[C@@H](O)[C@@H](OCc2cncs2)[C@H]1Cc1ccccc1", "result": "<2 µM"}
{"structure": "O=C(O)CCCCCC(=O)O", "result": ">1000 µM"}
{"structure": "O=C1C(O)=C(O)C(=O)C(O)=C1O", "result": "575 µM"}
{"structure": "O=C(O)CCCCCCCCCCCCCCC(=O)O", "result": ">1000 µM"}
{"structure": "CC(=O)N[C@@H](Cc1ccccc1)C(=O)N[C@@H](CO)C(=O)N[C@H](C(=O)N[C@@H](CCC(=O)O)C(=O)N[C@@H](CC(C)C)C(=O)O)c1ccc(OC(=O)c2ccccc2)cc1", "result": "300.6 µM"}
{"structure": "O=C(O)CCCCCCCC(=O)O", "result": ">1000 µM"}
{"structure": "Cc1ccc(Cl)cc1N1CCN(Cc2cn([C@@H](Cc3ccccc3)[C@H](Cc3ccccc3)NC(=O)OCC3CCCO3)nn2)CC1", "result": ">5 µM"}
{"structure": "CC(C)[C@@H]1NC(=O)CCCCCOc2ccc(cc2)C[C@@H]([C@H](O)CN2CCCC[C@H]2C(=O)NC(C)(C)C)NC1=O", "result": "0.085 µM"}
{"structure": "CC(C)[C@H](NC(=O)Cn1ccnc1)C(=O)N[C@@H](Cc1ccccc1)C(O)[C@H](Cc1ccccc1)NC(=O)[C@@H](NC(=O)OCc1ccccc1)C(C)C", "result": ">0.01 µM"}
{"structure": "O=C(O)CCCCCCCCC(=O)O", "result": "380 µM"}
{"structure": "O=S1(=O)[C@H](Cc2ccccc2)[C@H](OCc2cccnc2)[C@H](O)[C@@H](O)[C@@H](OCc2cccnc2)[C@H]1Cc1ccccc1", "result": "<2 µM"}
{"structure": "Cc1ccc(Cl)cc1N1CCN(Cc2cn([C@@H](Cc3ccccc3)[C@H](Cc3ccccc3)NC(=O)OC3CCCCCC3)nn2)CC1", "result": "<5 µM"}
{"structure": "O=C1c2cccc(O)c2C(=O)c2cccc(O)c21", "result": "78 µM"}
{"structure": "O=S1(=O)[C@@H](Cc2ccccc2)[C@@H](OCc2ccccc2)[C@@H](O)[C@H](O)[C@H](OCc2ccccc2)[C@@H]1Cc1ccccc1", "result": "10–50 µM"}

2 of the rows above, restated:

{"structure": "O=S1(=O)[C@H](Cc2ccccc2)[C@H](OCc2cncs2)[C@H](O)[C@@H](O)[C@@H](OCc2cncs2)[C@H]1Cc1ccccc1", "result": "<2 µM"}
{"structure": "O=C(O)CCCCCCCCCCCCCCC(=O)O", "result": ">1000 µM"}

Lines come from different laboratories, so protocols vary. ICn is the concentration giving n% inhibition.